Laboratory results taken from patent publication US3984481A, “Bis-2-substituted-thiovinyl sulfones” (Chevron Research Company, priority 1976, dated 1976).

Legend:
Experiment in all cases: Mycelial inhibition test
Settings in all cases: 25°C, 24 hours, 500 ppm acetone solution sprayed
Botrytis cinerea = tested on: Botrytis cinerea
Pythium ultimum = tested on: Pythium ultimum
Aspergillus niger = tested on: Aspergillus niger
Fusarium moniloforma = tested on: Fusarium moniloforma
Rhizoctonia solani = tested on: Rhizoctonia solani

SMILES: O=S(=O)(C(Cl)CSc1ccc(Cl)cc1)C(Cl)CSc1ccc(Cl)cc1 (centres unmarked)
- Mycelia Inhibition, micrograms/cm^2 for 99% control (Botrytis cinerea): 1.1 micrograms/cm^2
- Mycelia Inhibition, micrograms/cm^2 for 99% control (Pythium ultimum): 0.65 micrograms/cm^2
- Mycelia Inhibition, micrograms/cm^2 for 99% control (Aspergillus niger): 1.3 micrograms/cm^2
- Mycelia Inhibition, micrograms/cm^2 for 99% control (Fusarium moniloforma): 1.3 micrograms/cm^2
- Mycelia Inhibition, micrograms/cm^2 for 99% control (Rhizoctonia solani): 1.5 micrograms/cm^2
